{"source": "patent US20250248397A1", "about": "“CHITOSAN ENCAPSULATION OF ABSOLUTE (ESSENTIAL) ROSEMARY, PEPPERMINT, AND COTTONSEED OILS” (GroPro Corporation, priority 2024, published 2025)", "system": "mildew, and anthracnose", "assay": "Fungicide activity of Geraniol oil", "conditions": "used at 500 to 4,000 ppm"}
{"smiles": "CC(C)=CCC/C(C)=C/CO", "note": "[Geraniol, 3,7-dimethyl-2,6-octadien-1-ol]", "values": [{"measurement": "fungicidal control and plant phytotoxicity", "value": "superior fungicidal control was demonstrated without plant phytotoxicity"}]}
